Assay results published in article PMC13630248 (PLOS Biology, 2026).

B1: V1WT_41 IgG (antibody, V domains shown)
VH: QVQLQESGPGLVKPSETVSVTCTVSGGSITRSNYYWGWIRQPPGKGLEWIGSIFYNGNTNYNPSLKSRLTISVDTSKNQFSLKLSSVTAADTAVYYCARTAPYYYDRSGYYQKEEYFQRWGQGTLVTVSS
VL: EIVMTQSPSTLSASVGDRVTITCRASQSISTWLAWYQQKPGKAPNLLIYQASSLESGVPSRFSGSGSGTEFTLTISSLQPDDFATYYCQQYNNYPRTFGQGTKLEIK
notes: copies: 2 + 2
B2: VA14_26 IgG (antibody, V domains shown)
VH: QVQLQQWGAGLLKPSDTLSLTCGISGGPFSGYYWSWIRQPPGKGLEWLGEINHSGITTYNPSLKSRGTISVDTSKRQISLKLASVTAADTAVYYCARFAYGDYGWDYSSDMDVWGKGTTVTVSS
VL: DIQLTQSPSTLSASVGDRVTITCRASQSISTWLAWHQQIPGKAPKLLIYRASTLQSGVPSRFSGSGSGTEFTLTISSLQPDDFATYYCQQYYSVRTFGQGTKVDIK
notes: copies: 2 + 2
B3: V1WT_06 IgG (antibody, V domains shown)
VH: EVQLVQSGAEVKKPGASVKVSCKASGYTFSSHGISWVRQAPGQGLEWMGWISTYNGNTNSAQNLQGRVTMTADTSTSTAYMELRSLRSDDTAVYYCARGPWGYCSGTSCYYWTPDNPAYSYHGMDVWGQGTTVTVSS
VL: not shown
notes: copies: 2 + 2

Target: WIV-1 RBD (recombinant receptor binding domain of Spike) (bat sarbecovirus WIV-1, UniProt U5WI05)
Conditions: both partners purified

Row | Binder | binding result | fold increase in binding by ELISA, IgG over Fab [fold]
1 | B1 | binds | –
2 | B2 | binds | –
3 | B3 | – | 6.3
